From the supplement of paper PMC9931576
Human monoclonal antibodies against the spike receptor-binding domain (heavy:light variable regions). IC50 against pseudoviruses bearing the spike of naturally observed variants; lower = stronger; >10 µg/ml means not reached at the top dose. No active / inactive call. The stated detection limit is 0.0005 µg/ml; values near or below 0.001 µg/ml lie at the floor of the assay.

B1: BD55-6270 (protein)
chain 1: QVQLVQSGAEVKKPGASVRVSCKASGYTFSSYDINWVRQATGQGLEWMGWMNPNSGNTGYAHKFQGRVTMTGNTSISTAYMELSGLSSEDTAVYYCGRGLSVVKYYYYAMDVWGPGTTVTVSS
chain 2: DIQMTQSLSSLSASVGDRVTITCRASQSISTYLNWYQQQPGKVPKLLIYAASSLQSGVPSRFSGSGSGTDFTLTISSLQPEDFATYYCQQSYSFPGTFGQGTKVEIK
B2: BD55-6281 (protein)
chain 1: QEQLVQSGAEVKKPGASVKVSCKASGYTFTNYDINWVRQAAGQGLEWMGWMSPNSGDTGYAHKFQGRVTMTRDTSKSTAYMELSNLTFEDTAVYFCARKLGGQKYYYYYAVDVWGQGTAVAVSS
chain 2: DIQMTQSPSSLSASVGDRVTITCRASQSISYYLNWYQQKPGKAPKLLIYAASSLHTGVPSRFSGSGSGTDFTLTISSLQPEDFATYYCQQSYSTPSTFGPGTKVEVK
B3: BD55-6271 (protein)
chain 1: QVLLVQSGAEVRKPGASVRLSCKASGYSVGTYALHWVRQAPGQGLEWMGWINSGNDYTRYSQNFQGRVTISRDTSANTAYMELNSLKSQDTALYYCAREGSDWHAIYFDLWGQGSLVTVSS
chain 2: DIQMTQSPSSLSASVGDRVTITCRASQNVNNYLNWYQKKPGLAPKLLIYAASILQSGVPSRFSGSGSGTAFSLTITNLQPEDFATYYCQQSYETPPITFGQGTRLDIK
B4: BD55-6286 (protein)
chain 1: QVQLVQSGAEVKKPGASVKVSCKASGNSFTNNDINWVRQATGQGPEWMGWMNPDSGNTGYAHKFQGRVTMTRNTSIRTAYMELSSLTSEDTAVYYCASARARYSHGDFDNWGQGTLVTVSS
chain 2: DIQMTQSPSSLSASVGDRVTLTCRASQSISTYLNWYQKKPGKAPRLLIYAASSLQSGVPSRFSGSGSGTDFTLTISSLQPEDFATYYCQQSYSTGYNFGQGTNLEIK
B5: BD55-6290 (protein)
chain 1: QVQLVQSGAEVRKPGASVKVSCKTSGYTFTTYYIHWVRQAPGQGLEWMGIINPSGDATSYEKKFQGSVTMTSDTSTSTVYLELSSLTSEDTAVYYCARDGAGIPAAESLDYWGQGTLVTVSS
chain 2: DIQLTQSPSFLSASVGDRVTITCRASQGISSSLAWYQQKPGKAPKVLIYAASTLQSGVPSRFSGSGSGTEFTLTISSLQPEDFATYYCQQLFRYPPFTFGPGTKVHIK
B6: BD55-6273 (protein)
chain 1: QVQLVQSGAEVRKPGASVKVSCKASGYTFTSSEINWVRQAAGQGLEWLGWVNPSNGNTDYAHKFQGRVTMTRDTSTNTAYMELRSLTSEDTAVYYCAREKTDMSKYYYYDMDVWGQGTTVTVSS
chain 2: DIQMTQSPSSLSASVGDRVTITCRASQSITYYLNWYQQKPEKAPKLLIFEASSLQSGVPSRFSGSGSGTDFTLTITSLQPEDFATYYCQQSYTFPSTFGQGTKVEIK
B7: BD55-1208 (protein)
chain 1: EVQLVESGGGLVQPGGSLRLSCVASEIIVSRNYMSWVRQAPGKGLEWVSVIYSGGSTFYADSVTGRFTISRDDSKNTLFLDMNSLRPDDTALYYCARDFGDFYFDVWGQGTLVTVSS
chain 2: DIVLTQSPGTLSLSPGKRATLSCRASQSVHNFLAWYQQKPGQAPRLLIYDASSRAAGIADRFSGSGSGTDFTLTISRLEPEDFAFYYCQHYGGSPRTFGQGTKVEIK
B8: BD55-6268 (protein)
chain 1: EVQLVESGGGLVQPGRSLRLSCAASGFTFGEYAMHWVRQAPGKGLEWVAGITWKSGSVGYADSAKGRFTISRDDAKNSLYLQMNSLKAEDTAFYHCAKDDCSSTNCQFYYYYMDVWGRGTTVTVSS
chain 2: QSVLTQPPSVSGAPGQRVTISCTGSSSNIGAGYDVHWYQQVPGTVPKILIYGNTNRPSGVPDRFSGSRSGTSASLAIAGLQAEDEADYYCQSFDSSLSGHVVFGGGTKLTVL
B9: BD55-6289 (protein)
chain 1: QVQLQQRGAGLLRPSETLSLTCDVSGGSFSGYYWNWVRQPPGKGLEWIGDIDLAGNNYNPSLKSRVTMSIDASKNQFSLRLSSVTAADTAVYYCARAPNLGWFGPKQGAFDLWGQGTVVIVSS
chain 2: not shown
B10: BD55-6266 (protein)
chain 1: QVQLVESGGGVVQPGRSLRLSCAASGFTFSSHGIHWVRQAPGKGLEWVALIWNDGSKTYYPDSVKGRFTISRDNSKNTVYLQMNSLRDEDTAVYYCARDSLCSGGSCYFDYNWFDVWGQGTLVTVSS
chain 2: EIVLTQSPATLSLSPGERVTLSCKASQSVSRHLAWYQQKPGQPPSLLIYDASNRATGVPARFSGSGSGTDFTLTISSLEPEDFAVYYCQQRYTWPPAYTFGQGTKLQIK
B11: BD55-6279 (protein)
chain 1: QVQLVESGGGVVQPGRSLRLSCAVSGFTFSSYGMHWVRQAPGKGLEWVAVISYDGSNKYYADSVKGRFTISRDDSKNTLYLQMNSLRSEDTAVYYCVKELAVSGYYYYYYMDVWGKGTTVTVSS
chain 2: DIVMTQSPDSLAVSLGERATINCKSSQSVLYGSNNKNSLAWFQQKPGQPPKVLIYWASSRESGVPDRFSGSGSGTDFTLTISNLQAEDVAVYYCQQYYSIPITFGQGTRLEIK
B12: BD55-6283 (protein)
chain 1: QVQLVQSGAEVRKPGSSVKVSCKTSGGTFSTSAIHWVRQAPGQGPEWMGGIVPMFRSVDYAQKFQGRVTISADESTRTVYMELRSLRSEDTAVYYCAKDYEDSREYSGYDWTVSTWFYPWGQGTLVTVSS
chain 2: DIVMTQSPDSLAVSLGERATINCKSSRSVLYGSNNKNYLAWYQQRPGHPPKLLIYWASTRESGVPDRFSGSGSGTDFALTISSLQADDVAVYYCQQYYSPPPTFGQGTKLEIK
B13: BD55-6280 (protein)
chain 1: EVQLLESGGGLIQPGGSLRLSCAASGFTFSNYAMSWVRQAPGKGLEWVSDISGSGRSPDYADSVKGRFTISRDNSKNTLYLLMNSLRAEDTAVYYCVKDPFPTYYYDKSRFDSWGQGTLVTVSS
chain 2: DVVMTQSPLSLPVTLGQPASISCRSSQSLVYSDGITYLSWFQQRPGHSPRRLIYKVSNRDSGVPDRFSGSGSGTDFTLKISRVEAEDVGMYYCMQSTNWPPAFGGGTKVEIK

biological target: SARS-CoV-2 Omicron BA.1 spike pseudovirus; experiment: pseudovirus neutralization IC50; higher = weaker neutralization
Procedure: (§1)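 Single-round VSV luciferase pseudovirus mixed with antibody dilutions for 1 h and put on Huh-7 cells for about a day; IC50 from the dose curve.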

B1 and B2 cannot be ordered by “pseudovirus neutralization IC50” value: > 10 µg/mL for the first, > 10 µg/mL for the second.

B3 and B4 cannot be ordered by “pseudovirus neutralization IC50” value: > 10 µg/mL for the first, > 10 µg/mL for the second.

B5 and B6 cannot be ordered by “pseudovirus neutralization IC50” value: > 10 µg/mL for the first, > 10 µg/mL for the second.

First: B7
Second: B8
The “pseudovirus neutralization IC50” value of the first is lower: 0.00241 µg/mL for the first, > 10 µg/mL for the second.

First: B9
Second: B10
The “pseudovirus neutralization IC50” value of the first is higher: > 10 µg/mL for the first, 5.8 µg/mL for the second.

Going from B11 to B12, the “pseudovirus neutralization IC50” value falls from > 10 µg/mL to 2.42 µg/mL.

B13 was tested, and the “pseudovirus neutralization IC50” value was > 10 µg/mL.

biological target: SARS-CoV-2 Omicron BA.2 spike pseudovirus; experiment: as above
Procedure: as §1

B1 and B2 cannot be ordered by “pseudovirus neutralization IC50” value: > 10 µg/mL for the first, > 10 µg/mL for the second.

B3 and B4 cannot be ordered by “pseudovirus neutralization IC50” value: > 10 µg/mL for the first, > 10 µg/mL for the second.

B5 and B6 cannot be ordered by “pseudovirus neutralization IC50” value: > 10 µg/mL for the first, > 10 µg/mL for the second.

Compared with B7, B8 is higher in “pseudovirus neutralization IC50” value: 0.00267 µg/mL for the first, > 10 µg/mL for the second.

Going from B9 to B10, the “pseudovirus neutralization IC50” value falls from > 10 µg/mL to 7.18 µg/mL.

B11 and B12 cannot be ordered by “pseudovirus neutralization IC50” value: > 10 µg/mL for the first, > 10 µg/mL for the second.

With B13 the “pseudovirus neutralization IC50” value was > 10 µg/mL.

biological target: SARS-CoV-2 Omicron BA.2.75 spike pseudovirus; experiment: as above
Procedure: as §1

B1 and B2 cannot be ordered by “pseudovirus neutralization IC50” value: > 10 µg/mL for the first, > 10 µg/mL for the second.

B3 and B4 cannot be ordered by “pseudovirus neutralization IC50” value: > 10 µg/mL for the first, > 10 µg/mL for the second.

B5 and B6 cannot be ordered by “pseudovirus neutralization IC50” value: > 10 µg/mL for the first, > 10 µg/mL for the second.

Going from B7 to B8, the “pseudovirus neutralization IC50” value rises from 0.0204 µg/mL to > 10 µg/mL.

First: B9
Second: B10
The “pseudovirus neutralization IC50” value of the first is higher: > 10 µg/mL for the first, 9.63 µg/mL for the second.

B11 and B12 cannot be ordered by “pseudovirus neutralization IC50” value: > 10 µg/mL for the first, > 10 µg/mL for the second.

B13 was tested, and the “pseudovirus neutralization IC50” value was > 10 µg/mL.

biological target: SARS-CoV-2 Omicron BA.5 spike pseudovirus; experiment: as above
Procedure: as §1

B1 and B2 cannot be ordered by “pseudovirus neutralization IC50” value: > 10 µg/mL for the first, > 10 µg/mL for the second.

B3 and B4 cannot be ordered by “pseudovirus neutralization IC50” value: > 10 µg/mL for the first, > 10 µg/mL for the second.

B5 and B6 cannot be ordered by “pseudovirus neutralization IC50” value: > 10 µg/mL for the first, > 10 µg/mL for the second.

First: B7
Second: B8
The “pseudovirus neutralization IC50” value of the first is lower: 0.00401 µg/mL for the first, > 10 µg/mL for the second.

First: B9
Second: B10
The “pseudovirus neutralization IC50” value of the first is higher: > 10 µg/mL for the first, 6.2 µg/mL for the second.

B11 and B12 cannot be ordered by “pseudovirus neutralization IC50” value: > 10 µg/mL for the first, > 10 µg/mL for the second.

For B13, the “pseudovirus neutralization IC50” value was > 10 µg/mL.

biological target: SARS-CoV-2 Omicron BQ.1.1 spike pseudovirus; experiment: as above
Procedure: as §1

B1 and B2 cannot be ordered by “pseudovirus neutralization IC50” value: > 10 µg/mL for the first, > 10 µg/mL for the second.

B3 and B4 cannot be ordered by “pseudovirus neutralization IC50” value: > 10 µg/mL for the first, > 10 µg/mL for the second.

B5 and B6 cannot be ordered by “pseudovirus neutralization IC50” value: > 10 µg/mL for the first, > 10 µg/mL for the second.

Going from B7 to B8, the “pseudovirus neutralization IC50” value rises from 0.0289 µg/mL to > 10 µg/mL.

First: B9
Second: B10
The “pseudovirus neutralization IC50” value of the first is higher: > 10 µg/mL for the first, 5.35 µg/mL for the second.

B11 and B12 cannot be ordered by “pseudovirus neutralization IC50” value: > 10 µg/mL for the first, > 10 µg/mL for the second.

B13 was tested, and the “pseudovirus neutralization IC50” value was > 10 µg/mL.

biological target: SARS-CoV-2 Omicron XBB spike pseudovirus; experiment: as above
Procedure: as §1

B1 and B2 cannot be ordered by “pseudovirus neutralization IC50” value: > 10 µg/mL for the first, > 10 µg/mL for the second.

B3 and B4 cannot be ordered by “pseudovirus neutralization IC50” value: > 10 µg/mL for the first, > 10 µg/mL for the second.

B5 and B6 cannot be ordered by “pseudovirus neutralization IC50” value: > 10 µg/mL for the first, > 10 µg/mL for the second.

Going from B7 to B8, the “pseudovirus neutralization IC50” value rises from 0.319 µg/mL to > 10 µg/mL.

Compared with B9, B10 is lower in “pseudovirus neutralization IC50” value: > 10 µg/mL for the first, 4.85 µg/mL for the second.

B11 and B12 cannot be ordered by “pseudovirus neutralization IC50” value: > 10 µg/mL for the first, > 10 µg/mL for the second.

In the case of B13, the “pseudovirus neutralization IC50” value is reported as > 10 µg/mL.

biological target: SARS-CoV-2 early D614G spike pseudovirus; experiment: as above
Procedure: as §1

B1 and B2 cannot be ordered by “pseudovirus neutralization IC50” value: > 10 µg/mL for the first, > 10 µg/mL for the second.

B3 and B4 cannot be ordered by “pseudovirus neutralization IC50” value: > 10 µg/mL for the first, > 10 µg/mL for the second.

B5 and B6 cannot be ordered by “pseudovirus neutralization IC50” value: > 10 µg/mL for the first, > 10 µg/mL for the second.

Going from B7 to B8, the “pseudovirus neutralization IC50” value rises from 0.00346 µg/mL to > 10 µg/mL.

First: B9
Second: B10
The “pseudovirus neutralization IC50” value of the first is higher: > 10 µg/mL for the first, 3.7 µg/mL for the second.

Compared with B11, B12 is lower in “pseudovirus neutralization IC50” value: > 10 µg/mL for the first, 0.148 µg/mL for the second.

For B13, the “pseudovirus neutralization IC50” value was > 10 µg/mL.
